Experimental data: PubChem BioAssay AID624099 (ICCB-Longwood, 2012)
In all, the deposit lists about 21,000 reagents; below is a part drawn at random. 497 of them (2.4%) count as active. 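Higher z means weaker E2 silencing; only reporter increases were scored, and knock-downs that hurt cell survival may mask genuine repressor factors.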 Unmarked entries are inactive. Reagents against one gene are numbered here. Reagent sequences are not shown.

Screen: 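Human genes that papillomavirus E2 requires to repress the HPV18 LCR promoter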 (primary screen)
Cell system: human C33A cervical carcinoma cells (HPV-negative) stably expressing BPV1 E2 and an HPV18 LCR luciferase reporter
Knock-down reagent: siRNA pool against human genes, 40 nM
Time to read-out: 72 h
Measurement: 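HPV18 LCR reporter light per well, converted to plate-wise z-scores that exclude control wells, and averaged over triplicate plates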
Scale: mean z-score and z-score: higher = stronger reporter signal, weaker E2 silencing
Call rule: 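Hit if mean z-score reaches 2 and two or more of three replicate z-scores also reach 2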

gene knocked down | reagent no. | mean z-score | z-score, replicate A | z-score, replicate B | z-score, replicate C
SEC16B | 1 | -0.44 | -0.55 | -0.27 | -0.51
EFCAB8 | 1 | -2.24 | -1.97 | -2.25 | -2.51
LOC387720 (retired record) | 1 | -1.76 | -1.47 | -1.94 | -1.86
SLC35A1 | 1 | -0.66 | -0.63 | -0.76 | -0.58
SLC25A32 | 1 | 1.12 | 1.11 | 0.86 | 1.4
UBE2E4P | 1 | -0.2 | -0.37 | -0.29 | 0.05
KIF19BP | 1 | -0.28 | -0.07 | -0.62 | -0.14
SRGAP2C | 1 | -0.27 | 0.51 | -0.68 | -0.64

Part of the list above, reformatted:
gene knocked down,reagent no.,mean z-score,"z-score, replicate A","z-score, replicate B","z-score, replicate C"
KIF19BP,1,-0.28,-0.07,-0.62,-0.14
SRGAP2C,1,-0.27,0.51,-0.68,-0.64

The results go on:
gene knocked down | reagent no. | mean z-score | z-score, replicate A | z-score, replicate B | z-score, replicate C
OR10H5 | 1 | -0.15 | -0.23 | 0 | -0.22
LOC90462 (retired record) | 1 | 0.38 | 0.27 | 0.16 | 0.73
LRIG2 | 1 | -1.16 | -1.13 | -1.08 | -1.27
NDN | 1 | -0.09 | 0.03 | 0.14 | -0.45
FHDC1 | 1 | -0.44 | -0.59 | -0.41 | -0.31
MICAL3 | 1 | 0.35 | 0.34 | 0.49 | 0.23
MICAL3 | 2 | 1.86 | 2.33 | 1.9 | 1.36
EXOSC10 | 1 | 1.56 | 1.84 | 1.28 | 1.57
CACNG6 | 1 | -1.23 | -1.89 | -1.29 | -0.51
TMEM25 | 1 | 3.29 (active) | 3.41 | 3.8 | 2.64
CYB5R4 | 1 | -0.01 | -0.24 | 0.22 | -0.02
CGAS | 1 | -0.45 | -0.09 | -0.63 | -0.62
TMEM183A | 1 | 1.28 | 0.99 | 1.79 | 1.06
MCTP2 | 1 | -0.91 | -1.23 | -0.61 | -0.89
SHISA5 | 1 | -0.53 | -0.14 | -0.68 | -0.77
